Pooled drug test results. Numbers come from NIAID ChemDB, via PubChem.

All rows: whole-cell or culture tests; agent: Candida albicans

Blank or dashed fields: not listed here. Lines come from different laboratories, so protocols vary. MIC50, MIC90 and the like: level of inhibition, or share of isolates inhibited. ECn: concentration that inhibits the pathogen or its effect by n%.

structure | method | strain or isolate | endpoint | result
C[C@@H]1CC(=O)N(c2ccc(F)cc2F)C1=O | broth dilution / turbidity | ATCC 10231 | MIC | 62.5 µg/mL
O=C(Nc1ccccc1)OCC1CC(c2ccccn2)=NO1 | broth dilution |  | MIC | 320 µg/mL
Clc1ccc(OC(CCn2ccnc2)c2ccccc2)cc1 |  | 20 strains | MIC | 3.15 µg/mL
O=C(Nc1nc2ccc(NC(=O)[C@@H]3CCC[C@H](NCc4ccc5ccccc5c4)C3)cc2s1)C1CCCC1 |  | IFM 5743 | MIC | 25 µM
Ic1ccc(-c2csc(N/N=C\c3cccc4ccccc34)n2)cc1 |  | Clinical isolates | MIC | 1 µg/mL
C[C@H]1[C@H](O)[C@@H](C)/C=C/C=C/C=C/C=C/C=C/C=C/C=C/[C@H](O[C@@H]2O[C@H](C)[C@@H](O)[C@H](N)[C@@H]2O)C[C@@H]2O[C@](O)(C[C@@H](O)C[C@@H](O)CC[C@H](O)[C@@H](O)C[C@@H](O)CC(=O)O[C@H]1C)C[C@H](O)[C@H]2C(=O)O |  | 32 strains | MIC50 | 1 µg/mL
C[C@@H]1O[C@@H](O[C@H]2[C@H](O[C@H]3CC[C@@]4(C)[C@@H](CC[C@]5(C)[C@@H]4CC=C4[C@@H]6CC(C)(C)CC[C@]6(C(=O)O)CC[C@]45C)[C@]3(C)CO)OC[C@H](O)[C@@H]2O)[C@H](O)[C@H](O)[C@H]1O |  | Clinical isolates | MFC | 25 µg/mL
ON=C1CC(c2ccccc2)N(OCCc2nc3ccccc3o2)C(c2ccccc2)C1 |  |  | MIC | 100 µg/mL
Fc1ccc(OC(CCn2ccnc2)c2ccccc2)c(F)c1 |  | 20 strains | MIC90 | 64 µg/mL
C[C@H](n1nnc(CCN2CCN(c3ccc(F)cc3)CC2)n1)[C@](O)(Cn1cncn1)c1ccc(F)cc1F |  |  | MIC | 2 µg/mL
C[C@H]1[C@H](O)[C@@H](C)/C=C/C=C/C=C/C=C/C=C/C=C/C=C/[C@H](O[C@@H]2O[C@H](C)[C@@H](O)[C@H](N)[C@@H]2O)C[C@@H]2O[C@](O)(C[C@@H](O)C[C@@H](O)CC[C@H](O)[C@@H](O)C[C@@H](O)CC(=O)O[C@H]1C)C[C@H](O)[C@H]2C(=O)O | absorbance | ATCC 10231 | MIC | 1 µg/mL
C[C@@H]1CC(=O)N(c2ccccc2)C1=O | broth dilution / turbidity | ATCC 10231 | MIC | 62.5 µg/mL
Cc1ccc(SC[C@@H]2C[C@](c3ccc(Cl)cc3)(n3ccnc3)N(C)O2)cc1 |  | ATCC10259 | MIC | 7 µg/mL
Clc1ccc(C(CCn2ccnc2)Oc2ccc(Cl)cc2Cl)cc1 |  | 20 strains | MIC | 2.1 µg/mL
COC(=O)Nc1ccc2c(c1)c(C(C)=O)c(C)n2C(=O)OC | broth dilution |  | MIC | 320 µg/mL
C[C@H](n1nnc(CCN2CCN(c3ccccc3)CC2)n1)[C@](O)(Cn1cncn1)c1ccc(F)cc1F |  | V-01-191A-261 (resistant) | MIC | 8 µg/mL
CCC1C=C(c2cccnc2)C(=O)O1 |  | ATCC 44859 | MIC | 62.5 µM
Cc1ccc(SC[C@@H]2C[C@](c3ccccc3)(n3ccnc3)N(C)O2)cc1 |  | ATCC10259 | MIC | 7 µg/mL
C[C@H](n1nnnc1CCN1CCN(c2ccccc2Cl)CC1)[C@](O)(Cn1cncn1)c1ccc(F)cc1F |  | V-01-191A-261 (resistant) | MIC | 4 µg/mL
CCCCCCCCCCCOC(=O)c1cc(O)c(O)c(O)c1 |  |  | MFC | >400 µg/mL
C[n+]1c2ccccc2cc2[nH]c3c(Br)cccc3c21.[I-] | resazurin | ATCC 90028 | EC50 | >20 µg/mL
CC1(C)CC[C@]2(C(=O)O)CC[C@]3(C)C(=CC[C@@H]4[C@@]5(C)CC[C@H](O[C@@H]6OC[C@H](O)[C@H](O)C6O)[C@@](C)(CO)[C@@H]5CC[C@]43C)[C@@H]2C1 |  | ATCC 90029 | MFC | >100 µg/mL
CN1O[C@H](CSc2ccc(F)cc2)C[C@]1(c1ccc(Cl)cc1)n1ccnc1 |  | ATCC10259 | MIC | 7 µg/mL
CC(C)CNc1c(SC(=O)c2ccccc2)c[n+](C)c2ccccc12 | broth dilution | ATCC 10231 | MIC | 512 µg/mL
COc1ccccc1N1CCN(CCc2nnn([C@@H](C)[C@](O)(Cn3cncn3)c3ccc(F)cc3F)n2)CC1 |  | V-01-191A-261 (resistant) | MIC | 8 µg/mL
C[C@@H]1CC(=O)N(CCc2ccccc2)C1=O | broth dilution / turbidity | ATCC 10231 | MIC | 31.3 µg/mL
FC(F)(F)c1ccc(OC(CCn2ccnc2)c2ccccc2)cc1 |  | 20 strains | MFC90 | 128 µg/mL
CCSc1c[n+](C)c2ccccc2c1Nc1ccccc1 | broth dilution | ATCC 10231 | MIC | 128 µg/mL
C[C@@H]1O[C@@H](O[C@H]2[C@H](O)[C@@H](O)C(OC3[C@H](O[C@H]4CC[C@@]5(C)[C@@H](CC[C@]6(C)[C@@H]5CC=C5[C@@H]7CC(C)(C)CC[C@]7(C(=O)O)CC[C@]56C)[C@]4(C)CO)OC[C@H](O)[C@@H]3O)O[C@@H]2CO)[C@H](O)[C@H](O)[C@H]1O |  | Clinical isolates | MFC | 25 µg/mL
CC(C)=CCC/C(C)=C/C(=O)O |  |  | EC50 | >100 µg/mL
O=[N+]([O-])c1ccc(OC(CCn2ccnc2)c2ccccc2)cc1 |  | 20 strains | MIC | 26.8 µg/mL
ON=C1CC(c2ccccc2)N(OCCc2nc3ccccc3[nH]2)C(c2ccccc2)C1 |  |  | MIC | 200 µg/mL
C[C@@H]1O[C@@H](O[C@H]2[C@H](O[C@H]3CC[C@]4(C)[C@H]5CC=C6[C@@H]7CC(C)(C)CC[C@]7(C(=O)O)CC[C@@]6(C)[C@]5(C)CC[C@H]4C3(C)C)OC[C@H](O)[C@@H]2O)[C@H](O)[C@H](O)[C@H]1O |  | Clinical isolates | MFC | >100 µg/mL
C[C@H](n1nnnc1CCN1CCN(c2cccc(Cl)c2)CC1)[C@](O)(Cn1cncn1)c1ccc(F)cc1F |  |  | MIC | 2 µg/mL
COC12OC1(C13OC1(OC)C(=O)c1cc4cc(C)oc(=O)c4c(O)c1C3O)C(O)c1c(cc3cc(C)oc(=O)c3c1O)C2=O |  | A9540 | MIC | 25 µg/mL
NC(=NC1CCCC1)c1ccc(-c2ccc(-c3ccc(C(N)=NC4CCCC4)cc3)o2)cc1 |  | Isolate 2281 | MIC | 12.5 µg/mL
C[C@H](n1nnc(CCN2CCN(c3ccccc3Cl)CC2)n1)[C@](O)(Cn1cncn1)c1ccc(F)cc1F |  | V-01-191A-261 (resistant) | MIC | 4 µg/mL
C[C@@H]1CC(=O)N(CCCc2ccccc2)C1=O | broth dilution / turbidity | ATCC 10231 | MIC | 62.5 µg/mL
C[C@H](n1nnnc1CCN1CCN(c2ccc([N+](=O)[O-])cc2)CC1)[C@](O)(Cn1cncn1)c1ccc(F)cc1F |  | V-01-191A-261 (resistant) | MIC | 2 µg/mL
C[n+]1cccc(N(CCCCCC2CCCCC2)c2ccccc2C#N)c1.[I-] | resazurin | ATCC 90028 | EC50 | >20 µg/mL
CC(=O)Sc1c[n+](C)c2ccccc2c1Nc1ccc(F)cc1 | broth dilution | ATCC 10231 | MIC | 512 µg/mL
CC1C=C(c2ccc(Cl)cc2)C(=O)O1 |  | ATCC 44859 | MIC | >125 µM
C[C@H](n1nnnc1CCN1CCN(c2ccc(F)cc2)CC1)[C@](O)(Cn1cncn1)c1ccc(F)cc1F |  |  | MIC | 2 µg/mL
COC(=O)N1CCOc2ccccc21 | broth dilution |  | MIC | 320 µg/mL
CCSc1c[n+](C)c2ccccc2c1Nc1ccc(Cl)cc1 | broth dilution | ATCC 10231 | MIC | 256 µg/mL
COc1ccc(C2CC(=NO)CC(c3ccc(OC)cc3)N2OCCc2nc3ccccc3[nH]2)cc1 |  |  | MIC | 25 µg/mL
CCC1C=C(c2ccc(Br)cc2)C(=O)O1 |  | ATCC 44859 | MIC | 125 µM
CN1O[C@H](CSc2ccc(Cl)cc2)C[C@]1(c1ccc(Cl)cc1)n1ccnc1 |  | ATCC10259 | MIC | 7 µg/mL
COC(=O)Nc1ccc2c(c1)nc(-c1ccccc1)n2[O-] | broth dilution |  | MIC | 100 µg/mL
CC1C=C(c2ccc(C(F)(F)F)cc2)C(=O)O1 |  | ATCC 44859 | MIC | >125 µM

For reference, 3 entries again:

CC(C)CNc1c(SC(=O)c2ccccc2)c[n+](C)c2ccccc12 ; method: broth dilution ; strain or isolate: ATCC 10231 ; endpoint: MIC ; result: 512 µg/mL
O=C(Nc1nc2ccc(NC(=O)[C@@H]3CCC[C@H](NCc4ccc5ccccc5c4)C3)cc2s1)C1CCCC1 ; strain or isolate: IFM 5743 ; endpoint: MIC ; result: 25 µM
Clc1ccc(OC(CCn2ccnc2)c2ccccc2)cc1 ; strain or isolate: 20 strains ; endpoint: MIC ; result: 3.15 µg/mL